Results of unrelated studies side by side (data: NIAID ChemDB).

Shared fields: growth or infection tests; species: Aspergillus flavus

Lines come from different laboratories, so protocols vary.

smiles,measure,read by,tested at,strain or isolate,value
C[C@@H](c1nc(-c2ccc(C#N)cc2)cs1)[C@](O)(Cn1cncn1)c1cc(F)ccc1F,MIC90,,,,1–16 µg/mL
CNC1=CC(=O)c2ccccc2C1=O,MIC100,broth dilution,,MTCC 277,250 µg/mL
C/C(=N\NC(=O)c1ccc([N+](=O)[O-])cc1)c1ccc(-n2ccnc2)cc1,MIC50,broth dilution,,,>715.6 µM
C=CCc1ccc(O)c(OC)c1,MFC,broth dilution,,NRRL 501,320 µg/mL
OC(Cn1cncn1)(Cn1cncn1)c1ccc(F)cc1F,MIC100,broth dilution,,CCAM 080001,2.5 µg/mL
COc1cc(/C=C2\SC(N(C)C)=NC2=O)cc(OC)c1OC,MIC100,broth dilution,,ATCC 9170,>250 µg/mL
FC(F)(F)c1cccc([Se][Se]c2cccc(C(F)(F)F)c2)c1,MFC,broth dilution,,,>64 µg/mL
CN(C)C1=NC(=O)/C(=C/c2ccccc2)S1,MIC100,broth dilution,,ATCC 9170,>250 µg/mL
Cc1ccc2nc(Cl)c(CNc3ccc(F)cc3)cc2c1,zone,agar diffusion,200 µg/mL,MTCC 277,10.93 mm
CC(=O)N1CCN(c2ccc(OC[C@H]3CO[C@](Cn4ccnc4)(c4ccc(Cl)cc4Cl)O3)cc2)CC1,MIC100,broth dilution,,ATCC 9170,0.5 µg/mL
CC[C@@H]([C@H](C)O)n1ncn(-c2ccc(N3CCN(c4ccc(OC[C@@H]5CO[C@@](Cn6cncn6)(c6ccc(F)cc6F)C5)cc4)CC3)cc2)c1=O,MIC90,,,,0.5 µg/mL
C[C@@H]1[C@H](O)[C@@H](C)/C=C/C=C/CC/C=C/C=C/C=C/C=C/C(O[C@H]2O[C@H](C)[C@@H](O)[C@H](N)[C@@H]2O)CC2O[C@](O)(CC(O)C(O)CCC(O)CC(O)CC(O)CC(=O)O[C@H]1C)CC(O)C2C(=O)O,MIC100,broth dilution,,MTCC 277,125 µg/mL
O=C(N/N=C/c1ccc(-n2ccnc2)cc1)c1ccc(Cl)cc1,MIC50,broth dilution,,,>769.8 µM
COc1cc(C)ccc1O,MIC100,agar,,,505 µg/mL
Cc1ccc2nc(Cl)c(CNc3ccc([N+](=O)[O-])cc3)cc2c1,zone,agar diffusion,200 µg/mL,MTCC 277,8.83 mm
C[C@@H]1[C@H](O)[C@@H](C)/C=C/C=C/CC/C=C/C=C/C=C/C=C/C(O[C@H]2O[C@H](C)[C@@H](O)[C@H](N)[C@@H]2O)CC2O[C@](O)(CC(O)C(O)CCC(O)CC(O)CC(O)CC(=O)O[C@H]1C)CC(O)C2C(=O)O,MIC50,broth dilution,,,>269 µM
C[C@H]1[C@H](O)[C@@H](C)/C=C/C=C/C=C/C=C/C=C/C=C/C=C/[C@H](O[C@@H]2O[C@H](C)[C@@H](O)[C@H](N)[C@@H]2O)C[C@@H]2O[C@](O)(C[C@@H](O)C[C@@H](O)CC[C@H](O)[C@@H](O)C[C@@H](O)CC(=O)O[C@H]1C)C[C@H](O)[C@H]2C(=O)O,MIC90,,,,1–4 µg/mL
Oc1cc(O)cc(O)c1,MIC50,agar,,,>1000 µg/mL
NC(=S)N/N=C/c1ccc(-n2ccnc2)cc1,MIC50,broth dilution,,,>1020 µM
CN(C/C=C/C#CC(C)(C)C)Cc1cccc2ccccc12,zone,agar diffusion,200 µg/mL,MTCC 277,24.78 mm
Clc1ccc([Se][Se]c2ccc(Cl)cc2)cc1,MFC,broth dilution,,,>64 µg/mL
CCCCCOc1ccc(-c2ccc(-c3ccc(C(=O)N[C@H]4C[C@@H](O)[C@@H](O)NC(=O)[C@@H]5[C@@H](O)[C@@H](C)CN5C(=O)[C@H]([C@H](C)O)NC(=O)[C@H]([C@H](O)[C@@H](O)c5ccc(O)cc5)NC(=O)[C@@H]5C[C@@H](O)CN5C(=O)[C@H]([C@H](C)O)NC4=O)cc3)cc2)cc1,MIC90,,,,0.015–8 µg/mL
O=C/C=C/c1ccccc1,MFC,broth dilution,,NRRL 501,160 µg/mL
COc1cc(C(=O)O)ccc1O,MIC100,agar,,,>1000 µg/mL
COC1=CC(=O)C[C@@H](C)[C@]12Oc1c(Cl)c(OC)cc(OC)c1C2=O,zone,agar diffusion,125 µg/disc,,31 mm
O=C(O)/C=C/c1ccc(O)c(O)c1,MIC50,agar,,,>1000 µg/mL
O=C1C=C(N2CCOCC2)C(=O)c2ccccc21,MIC100,broth dilution,,MTCC 277,250 µg/mL
COc1ccccc1O,MIC100,agar,,,>1000 µg/mL
Cc1ccc2nc(Cl)c(CNc3cccc(Cl)c3)cc2c1,zone,agar diffusion,200 µg/mL,MTCC 277,10.56 mm

3 of the rows above, restated:

smiles,measure,read by,tested at,strain or isolate,value
COc1cc(C)ccc1O,MIC100,agar,,,505 µg/mL
C[C@@H]1[C@H](O)[C@@H](C)/C=C/C=C/CC/C=C/C=C/C=C/C=C/C(O[C@H]2O[C@H](C)[C@@H](O)[C@H](N)[C@@H]2O)CC2O[C@](O)(CC(O)C(O)CCC(O)CC(O)CC(O)CC(=O)O[C@H]1C)CC(O)C2C(=O)O,MIC50,broth dilution,,,>269 µM
CN(C)C1=NC(=O)/C(=C/c2ccccc2)S1,MIC100,broth dilution,,ATCC 9170,>250 µg/mL

A number after MIC or MFC names an inhibition level or a share of isolates. Two numbers with a dash give a range or band. Zones are inhibition diameters on agar. An empty or dashed field is not shown.